Pooled drug test results. Numbers come from NIAID ChemDB, via PubChem.

Shared fields: growth or infection tests; organism: HIV-1; measure: EC50

Lines come from different laboratories, so protocols vary. Blank or dashed fields: not listed here. ECn: concentration that inhibits the pathogen or its effect by n%.

SMILES,mutations,read by,cells,strain,value
Cc1cc(C#N)cc(C)c1Oc1ncc(NC(=O)C(F)(F)F)c(Nc2ccc(C#N)cc2)n1,-,MTT,MT-4,IIIB,0.037 µM
COC(=O)[C@H](C)NP(=O)(OC[C@@H]1C=C[C@H](n2cc(C)c(=O)[nH]c2=O)O1)Oc1ccc(Br)cc1,RT-T69K K70G V75I F77L F116Y Q151M M184V,RT activity,PBMC,56252-1 NRTI resistant recombinant,0.0063 µM
CC1(C)Oc2ccc3ccc(=O)oc3c2[C@@H](OC(=O)C23CCC(C)(C(=O)O2)C3(C)C)[C@H]1OC(=O)C12CCC(C)(C(=O)O1)C2(C)C,-,p24,H9,-,0.000256 µM
Fc1cccc(Cl)c1C1OCc2nc3ccccc3n21,RT-V106A,cytopathic effect / MTT,CEM,Nevirapine-resistant (RT V106A),>14.69 µM
Cc1cn([C@H]2C[C@H](N=[N+]=[N-])[C@@H](CO)O2)c(=O)[nH]c1=O,-,p24,H9,IIIB,<0.001 µg/mL
Cc1cn([C@H]2C[C@H](N=[N+]=[N-])[C@@H](CO)O2)c(=O)[nH]c1=O,-,p24 / antigen,MT-4,-,0.022 µM
Fc1cccc(F)c1Cn1c(-c2c(F)cccc2F)nc2c(Br)cccc21,RT-Y188C,cytopathic effect / MTT,MT-4,-,3.4 µM
Cc1cc(C=O)cc(C)c1Oc1ncc(NC(=O)C(F)(F)F)c(Nc2ccc(C#N)cc2)n1,-,MTT,MT-4,RES056,35 µM
CC(C)CN(C[C@@H](O)[C@H](Cc1ccccc1)NC(=O)O[C@H]1CCOC1)S(=O)(=O)c1ccc(N)cc1,-,cytopathic effect / MTT,MT-4,LAI,0.021 µM
Fc1cccc(F)c1C1SCc2nc3ccccc3n21,-,cytopathic effect / XTT,MT-2,IIIB,1.32 µM
OCCOCn1c(-c2ccccc2)c(Br)c2ccccc21,-,-,MT-4,-,>117 µM
O=C(O)c1cc(C(O)(c2ccc(O)c(C(=O)O)c2)c2ccc(O)c(C(=O)O)c2)ccc1O,-,cytopathic effect,CEM,-,110 µM
CCCCCCCCCCCCCCCCOCCCOP(=O)(O)COCCNc1cc(N)nc(N)n1,-,p24,MT-2,LAI,0.14 µM
O=c1cc(Cc2c(Cl)cccc2Cl)nc(SCc2cn(Cc3ccccc3)nn2)[nH]1,-,MTT,-,RES056,>273 µM
CC(C)(C)c1ccc(OC2=C(C=O)CC[C@@H]3[C@H]4CCCN5CCC[C@@H](CN23)[C@@H]45)cc1,-,syncytia,C8166,IIIB,15.41 µg/mL
O=c1c2ccccc2n2nnc3ccc(NCCCN4CCN(CCCNc5ccc6nnn7c8ccccc8c(=O)c5c67)CC4)c1c32,-,p24,MM + M/M,ADA,0.005 µM
Nc1nc(=O)n(CCOCP(=O)(O)O)cc1F,-,p24,MT-2,LAI,>100 µM
CC(=O)N(C)c1cccc2c1nc(-c1c(F)cccc1F)n2Cc1c(F)cccc1F,RT-L100I,cytopathic effect / MTT,MT-4,-,0.16 µM
COC[C@@H](c1ccc(C(F)(F)F)cc1)N1CCN(C2(C)CCN(C(=O)c3c(C)ncnc3C)CC2)C[C@@H]1C,-,MTT,PM1,NLAD8,0.009 µM
CCCCCCCCCCCCCCCCOCCCOP(=O)(O)CO[C@H](CO)Cn1cc(F)c(=O)[nH]c1=O,-,p24,MT-2,LAI,>100 µM
Cc1c(CCC2CCCCC2)nc(SCC(=O)c2ccc(O)cc2)[nH]c1=O,-,MTT,MT-4,IIIB,0.24 µM
CC(C)Nc1cccnc1N1CCN(C(=O)c2cc3cc(NS(C)(=O)=O)ccc3[nH]2)CC1,-,MTT,MT-4,RES056,>36 µM
O=CC1=C(Oc2ccc(Cl)cc2)N2C[C@@H]3CCCN4CCC[C@@H]([C@H]34)[C@H]2CC1,-,syncytia,C8166,IIIB,42.08 µg/mL
CCCCCCCCCCCCCCCCOCCCOP(=O)(O)COCCn1cnc2c(=O)[nH]c(N)nc21,-,p24,MT-2,LAI,0.0000074 µM
N#Cc1ccccc1Cn1cc(CSc2nc(Cc3cccc4ccccc34)cc(=O)[nH]2)nn1,-,MTT,-,IIIB,>105 µM
Nc1nc(=O)n(C[C@@H](CO)OCP(=O)(O)O)cc1F,-,p24,MT-2,LAI,>100 µM
Cc1cn([C@H]2C[C@H](N=[N+]=[N-])[C@@H](CO)O2)c(=O)[nH]c1=O,RT-T215Y,RT activity,PBMC,RTMF(RT-T215Y),0.18 µM
O=c1[nH]cnc2c1ncn2[C@H]1CC[C@@H](CO)O1,-,syncytia,MT-4,IIIB,2.7 µM
CC1=CC(=O)[C@@H](O)[C@]2(C)[C@H]3C4(O)OC[C@]35[C@H]([C@@H](C)[C@H]4O)[C@@H](O)C(=O)O[C@@H]5C[C@@H]12,-,p24,PBMC,-,0.63 µM
O=c1[nH]c2ccc(Cl)cc2n1Cc1c(F)cccc1F,RT-K103N,cytopathic effect,CEM,-,>20 µM
Nc1n[nH]c(=O)c2c1ncn2[C@H]1C[C@H](O)[C@@H](CO)O1,-,cytopathic effect / MTT,CEM + CEM-SS,RF,89.2 µM
O=c1[nH]c(SCc2cn(Cc3ccc(F)cc3)nn2)nc(Cc2c(Cl)cccc2Cl)c1I,-,MTT,-,IIIB,>92.05 µM
COC(=O)[C@H](C)NP(=O)(OC[C@@H]1CC[C@H](n2cnc3c(N)ncnc32)O1)Oc1ccccc1,-,p24,MM + M/M,BaL,0.005 µM
Cc1cn([C@H]2C=C[C@@H](COP(=O)(Nc3cc(C(=O)NCCC(=N)N)n(C)c3)OC(C)C)O2)c(=O)[nH]c1=O,-,syncytia,CEM/TK-,-,2.13 µM
CC(C)(O)c1ccc(CN2C(=O)N(Cc3ccc(C(C)(C)O)cc3)[C@H](Cc3ccccc3)[C@H](O)[C@@H](O)[C@H]2Cc2ccccc2)cc1,-,-,MT-2/MT-4 + MT-2,RF,<8.04 µM
O=C(O)C1=CC(=C(c2ccc(O)c(C(=O)O)c2)c2ccc(O)c(C(=O)O)c2)C=CC1=O,-,cytopathic effect,CEM,-,38 µM
O=c1[nH]c(SCc2cn(Cc3ccc(F)cc3)nn2)nc(Cc2cccc3ccccc23)c1I,-,MTT,-,IIIB,>81.81 µM
Cn1cc(NC(=O)c2cc(NC(=O)c3cc([N+](=O)[O-])cn3C)cn2C)cc1C(=O)NCCC#N,-,syncytia,CEM,-,>100 µM
Cc1cc(Br)cc(C)c1Oc1ncc(NC(=O)C(F)(F)F)c(Nc2ccc(C#N)cc2)n1,-,MTT,MT-4,IIIB,0.053 µM
Nc1cccc2c1nc(-c1c(F)cccc1F)n2Cc1c(F)cccc1F,RT-D67N K70R L100I T215Y K219Q,cytopathic effect / MTT,MT-4,RT-4XAZT+L100I,0.3 µM
CC(C)(O)c1cccc(CN2C(=O)N(Cc3cccc(C(C)(C)O)c3)[C@H](Cc3ccccc3)[C@H](O)[C@@H](O)[C@H]2Cc2ccccc2)c1,-,-,MT-2/MT-4 + MT-2,RF,<0.0337 µM
Cc1cn([C@H]2C=C[C@@H](COP(=O)(Nc3cc(C(=O)Nc4cc(C(=O)NCCC(=N)N)n(C)c4)n(C)c3)OC(C)C)O2)c(=O)[nH]c1=O,-,syncytia,CEM/TK-,-,2.01 µM
O=C(C(=O)N1CCC(=C2c3ccccc3CCc3ccccc32)CC1)c1c[nH]c2c(Br)ncc(F)c12,-,luciferase / reporter gene / single cycle,MT-2,LAI,>0.5 µM
COC1=C(C=O)CC[C@@H]2[C@H]3CCCN4CCC[C@@H](CN12)[C@@H]34,-,syncytia,C8166,IIIB,10.52 µg/mL
O=C(CSc1nc(CCC2CCCCC2)cc(=O)[nH]1)c1ccc(F)cc1,-,MTT,MT-4,IIIB,79.9 µM
Cc1ccc(OC2=C(C=O)CC[C@@H]3[C@H]4CCCN5CCC[C@@H](CN23)[C@@H]45)cc1,-,syncytia,C8166,IIIB,5.4 µg/mL
OCCOCn1c(-c2ccccn2)c(Br)c2ccccc21,-,-,MT-4,-,>200 µM
CC(=O)Nc1cccc2c1nc(-c1c(F)cccc1F)n2Cc1c(F)cccc1F,RT-K101E,cytopathic effect / MTT,MT-4,-,>20 µM
CC(C)=CCN1Cc2cc(Cl)cc3[nH]c(=S)n(c23)C[C@@H]1C,RT-L74V,-,MT-4,-,<1.5 µM
CC1=C2OCC(C)c3c(O)cc(C)c(c32)C(=O)C1=O,-,-,H9,-,16.58 µg/mL
Cc1c(C(C)C2CCCCC2)nc(SCC(=O)c2ccccc2)[nH]c1=O,-,MTT,MT-4,IIIB,0.08 µM
Cc1cn([C@H]2C[C@H](N=[N+]=[N-])[C@@H](CO)O2)c(=O)[nH]c1=O,RT-K20R D67N K103N T215Y,p24,PBMC,X165-9 Clinical isolate ZDV-resistant,0.9 µM
CC(=O)OCCOCn1cc(C#N)c2ccccc21,-,-,MT-4,-,>200 µM
CC(=N)CCNC(=O)c1cc(NC(=O)c2cc(NC(=O)c3cc(NP(=O)(OC[C@@H]4C=C[C@H](n5cc(C)c(=O)[nH]c5=O)O4)OC4CCCCC4)cn3C)cn2C)cn1C,-,syncytia,CEM,-,0.43 µM
Nc1ncnc2c1ncn2[C@H]1CC[C@@H](CO)O1,-,-,CEM + CEM TK-,-,0.43 µM
Cn1cc(NC(=O)c2cc(NC(=O)c3cc([N+](=O)[O-])cn3C)cn2C)cc1C(=O)NCCC(=N)N,-,p24 / antigen,MT-4,-,>100 µM
CCCCCCCCCCCCCCCCOCCCOP(=O)(O)CO[C@H](CO)Cn1cc(F)c(N)nc1=O,-,p24,MT-2,LAI,39 µM
CC(c1cc(=O)[nH]c(SCC(=O)c2ccc(F)cc2)n1)C1CCCCC1,-,MTT,MT-4,IIIB,7.55 µM
Cc1cn([C@H]2C[C@H](N=[N+]=[N-])[C@@H](COP(=O)(Nc3cc(C(=O)NCCC(=N)N)n(C)c3)OC3CCCCC3)O2)c(=O)[nH]c1=O,-,syncytia,CEM,-,0.152 µM
CC(C)(C)C(=O)OCCSP(=O)(OC[C@@H]1C=C[C@H](n2cnc3c(N)ncnc32)O1)SCCOC(=O)C(C)(C)C,-,-,CEM + CEM TK-,-,0.0077 µM
CC(C)=CCOc1c2occc2cc2ccc(=O)oc12,-,luciferase,HeLa,NL4-3 Recombinant VSV-pseudotyped,<50 µM
[NH4+],-,antigen,C8166,GUN1,>100 µg/mL
Cc1c(C(C)C2CCCCC2)nc(SCC(=O)c2ccc(O)cc2)[nH]c1=O,-,MTT,MT-4,IIIB,0.05 µM
C[C@@H]1O[C@@H](OC[C@H]2O[C@@H](Oc3c(-c4ccc(OS(=O)(=O)O)c(OS(=O)(=O)O)c4)oc4cc(OS(=O)(=O)O)cc(OS(=O)(=O)O)c4c3=O)[C@H](OS(=O)(=O)O)[C@@H](OS(=O)(=O)O)[C@@H]2OS(=O)(=O)O)[C@H](OS(=O)(=O)O)[C@H](OS(=O)(=O)O)[C@H]1OS(=O)(=O)O,-,p24,PBMC,ADAM R5,4.5 µM
c1ccc(C2OCc3nc4ccccc4n32)cc1,RT-E138K,cytopathic effect / MTT,CEM,TSAO-resistant (RT E138K),>3.4 µM
Cc1cn([C@H]2C=C[C@@H](CO)O2)c(=O)[nH]c1=O,-,syncytia,CEM/TK-,-,57.8 µM
Cc1cccc(OC2=C(C=O)CC[C@@H]3[C@H]4CCCN5CCC[C@@H](CN23)[C@@H]45)c1,-,syncytia,C8166,IIIB,2.75 µg/mL
CC(C)(C)NC(=O)[C@@H]1CN(Cc2cccnc2)CCN1C[C@@H](O)C[C@@H](Cc1ccccc1)C(=O)N[C@H]1c2ccccc2C[C@H]1O,RT-T69K K70G V75I F77L F116Y Q151M M184V,RT activity,PBMC,56252-1 NRTI resistant recombinant,0.0037 µM
Cc1c(Cc2cccc3ccccc23)nc(SCc2cn(Cc3ccccc3C#N)nn2)[nH]c1=O,-,MTT,-,IIIB,>123 µM
Cc1cc(C)c(Oc2ncc([N+](=O)[O-])c(Nc3ccc(C#N)cc3)n2)c(C)c1,-,MTT,MT-4,RES056,>25 µM
Nc1nc(=O)n([C@@H]2CS[C@H](CO)O2)cc1F,M184V/A502V,GFP,TZM-gfp,NL4-3,>100 µM
Cc1cn([C@H]2C[C@H](N=[N+]=[N-])[C@@H](COP(=O)(Nc3cc(C(=O)Nc4cc(C(=O)Nc5cc(C(=O)NCCC#N)n(C)c5)n(C)c4)n(C)c3)OC3CCCCC3)O2)c(=O)[nH]c1=O,-,syncytia,CEM,-,0.011 µM
CC(=O)OCCOCn1c(-c2ccccn2)c(Br)c2ccccc21,-,-,MT-4,-,>200 µM
O=CC1=C(Cl)N2C[C@@H]3CCCN4CCC[C@@H]([C@H]34)[C@H]2CC1,-,syncytia,C8166,IIIB,10.71 µg/mL
CC(CC1CCCCC1)c1cc(=O)[nH]c(SCC(=O)c2ccc(O)cc2)n1,-,MTT,MT-4,IIIB,1.44 µM
CC1(C)O[C@@H]1COc1c2occc2cc2ccc(=O)oc12,-,p24,H9,IIIB,7.29 µg/mL
Cc1ccccc1OC1=C(C=O)CC[C@@H]2[C@H]3CCCN4CCC[C@@H](CN12)[C@@H]34,-,syncytia,C8166,IIIB,19.78 µg/mL
Cc1cn([C@H]2C[C@H](N=[N+]=[N-])[C@@H](CO)O2)c(=O)[nH]c1=O,-,-,H9,-,0.0007 µg/mL

For reference, 6 entries again:

SMILES	mutations	read by	cells	strain	value
CC(=O)OCCOCn1c(-c2ccccn2)c(Br)c2ccccc21	-	-	MT-4	-	>200 µM
COC[C@@H](c1ccc(C(F)(F)F)cc1)N1CCN(C2(C)CCN(C(=O)c3c(C)ncnc3C)CC2)C[C@@H]1C	-	MTT	PM1	NLAD8	0.009 µM
CC(=O)Nc1cccc2c1nc(-c1c(F)cccc1F)n2Cc1c(F)cccc1F	RT-K101E	cytopathic effect / MTT	MT-4	-	>20 µM
Nc1ncnc2c1ncn2[C@H]1CC[C@@H](CO)O1	-	-	CEM + CEM TK-	-	0.43 µM
CCCCCCCCCCCCCCCCOCCCOP(=O)(O)CO[C@H](CO)Cn1cc(F)c(N)nc1=O	-	p24	MT-2	LAI	39 µM
COC(=O)[C@H](C)NP(=O)(OC[C@@H]1CC[C@H](n2cnc3c(N)ncnc32)O1)Oc1ccccc1	-	p24	MM + M/M	BaL	0.005 µM